Taken from: PubChem BioAssay AID504761 (Drosophila RNAi Screening Center, 2011)

Purpose: 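Fly genes whose silencing reduces dengue virus type 2 infection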 (primary screen)
Cells: D.Mel-2 cells from Drosophila
Reagent: long dsRNA against Drosophila genes
Challenge: infection with dengue virus type 2; dose and infection time not stated
Measurement: 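Per well on two replicate plates, imaging gave the percent of cells positive for viral envelope protein, ranked by infection, and a nuclear count of cells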
Direction: infection score: higher = more virus-infected cells; cell count: higher = more cells in the well
Rule for the call: 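Low infection ranks in the two replicates (chance level up to 0.065) followed by a retest with a 1.5-fold or larger significant decrease, p below 0.05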
Meaning of the calls: active = confirmed: knock-down lowers infection; inactive = not picked or not confirmed
In all, the deposit lists about 22,000 reagents; this is a random part of those that have a named target and a result. Of all reagents, 116 (0.52%) got an active call. 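Calls depend on retest data that are not deposited; infection was ranked per plate without normalising between plates; the unit of the infection score is not given.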 The raw values are shown without normalisation. Not all columns of the deposit are shown. Not stated in the record: the amount of reagent, the time to read-out.

For Cht11 (Chitinase 11) [DRSC18270], what was measured?
infection score, replicate 1: 7.68; cell count, replicate 1: 6273; Call: inactive

How did the screen score Cht11 (Chitinase 11) [DRSC25942]?
infection score, replicate 1: 1.54; cell count, replicate 1: 6805; Call: inactive

What did the screen give for CG1246 [DRSC08275]?
infection score, replicate 1: 19.1; cell count, replicate 1: 4533; Call: inactive

With Eaat2 (Excitatory amino acid transporter 2) [DRSC00032], what was measured?
infection score, replicate 1: 8.56; cell count, replicate 1: 6517; Call: inactive

With Eaat2 (Excitatory amino acid transporter 2) [DRSC00749], what does the deposit list?
infection score, replicate 1: 4.61; cell count, replicate 1: 6357; Call: inactive

Which result is listed for Eaat2 (Excitatory amino acid transporter 2) [DRSC26070]?
infection score, replicate 1: 10.4; cell count, replicate 1: 5720; Call: inactive

What is on record for AIF (Apoptosis inducing factor) [DRSC00696]?
infection score, replicate 1: 7.37; cell count, replicate 1: 5618; Call: inactive

Quoted from above for reference:
Eaat2 (Excitatory amino acid transporter 2) [DRSC00749] → infection score, replicate 1: 4.61; cell count, replicate 1: 6357; Call: inactive
Eaat2 (Excitatory amino acid transporter 2) [DRSC26070] → infection score, replicate 1: 10.4; cell count, replicate 1: 5720; Call: inactive

Further reagents:
For CR33317 (pseudo) [DRSC02653], what was measured?
infection score, replicate 1: 4.41; cell count, replicate 1: 5238; Call: inactive

For GNBP1 (Gram-negative bacteria binding protein 1) [DRSC11169], what was measured?
infection score, replicate 1: 8; cell count, replicate 1: 6676; Call: inactive

What did the screen give for GNBP1 (Gram-negative bacteria binding protein 1) [DRSC21836]?
infection score, replicate 1: 6.83; cell count, replicate 1: 6471; Call: inactive

For CG3009 [DRSC18263], what was measured?
infection score, replicate 1: 2.05; cell count, replicate 1: 5609; Call: inactive

How did the screen score CG3009 [DRSC28666]?
infection score, replicate 1: 15.3; cell count, replicate 1: 4005; Call: inactive

With CG32391 [DRSC08865], how do the results read?
infection score, replicate 1: 4.08; cell count, replicate 1: 5904; Call: inactive

For Dhc16F (Dynein heavy chain at 16F) [DRSC20242], how do the results read?
infection score, replicate 1: 17.1; cell count, replicate 1: 5907; Call: inactive
